Anti-infective test results gathered from many reports (values: NIAID ChemDB through PubChem).

All rows: growth or infection tests; agent: Candida albicans; measure: MIC

Two numbers with a dash give a range or band.

compound	strain or isolate	read by	result
CCCCCCCCCCCCCCCCCCCCCCC(=O)Nc1ccccc1C(=O)OCC			80 µg/mL
COc1ccc(C2=NN(C(C)=O)C(c3cc(OC)c(OC)c(OC)c3)C2)cc1OC	DSM 70014		12.5 µg/mL
Fc1ccc(CC(Cc2ccc(-c3ccccc3)cc2)n2ccnc2)c(F)c1			≥5.5 µM
Cc1ccc(C(C)C)cc1	M1		5–10 µg/mL
Cc1c(O)cccc1C(=O)N[C@@H](CSc1ccccc1)[C@H](O)CN1C[C@H]2CCCC[C@H]2C[C@H]1C(=O)NC(C)(C)C	I157D		>64 µg/mL
CCOC(=O)c1c(C)[nH]c(O)c1C=Nc1ccc([N+](=O)[O-])cc1			>100 µg/mL
CCCCC/C=C/CCC(=O)[C@H]1O[C@H]1C(=O)N(CC)CC	SC5314		12.5 µg/mL
O=C(N=Nc1c(O)[nH]c2cccc(Cl)c12)Nc1ccc(Cl)cc1			>1.56 µg/mL
COc1ccc(Cc2nc(CN3CCc4sccc4C3)n[nH]2)cc1	NCIM371	agar	50 µg/mL
CC1(c2ccccc2)CC(/C(=N/OCc2ccccc2)c2cc3ccccc3o2)C1	ATCC 10231		2.5 µg/mL
Cc1ccc(-c2nn(-c3ccccc3)cc2/C=N/N=c2\sc3c(=O)[nH]c(=S)[nH]c3n2-c2ccccc2)cc1			>200 µg/mL
CCOC(=O)c1c(C)[nH]c(O)c1C=O			>100 µg/mL
CCCOC[N+](C)(C)Cc1cc(N=Nc2ccc(Cl)cc2)ccc1O			1256 µM
CC(N1CCN(c2ccc(-n3cnn(Cc4ccc(C(F)(F)F)cc4)c3=O)cc2F)CC1)C(O)(Cn1cncn1)c1ccc(F)cc1F	Y0109		<0.048 µg/mL
c1ccc(-c2n[nH]c(CN3CCc4sccc4C3)n2)cc1	NCIM371	agar	75 µg/mL
Cn1cccc1-c1n[nH]c(=O)n1CCCCCCn1c(-c2cccn2C)n[nH]c1=O	ATCC 90028		7.5 µg/mL
O=C(N=Nc1c(O)[nH]c2cc(Cl)ccc12)Nc1ccc(Cl)cc1			>1.56 µg/mL
OC(Cn1cncn1)(Cn1cncn1)c1ccc(F)cc1F	NCIM3471	agar	5 µg/mL
Clc1ccccc1CC(Cc1ccc(-c2ccccc2)cc1)n1ccnc1			19.2 µM
Nc1ccccc1Cc1nc(CN2CCc3sccc3C2)n[nH]1	NCIM371	agar	50 µg/mL
Cl.N#CCC1=NC2(CCCC2)Cc2ccccc21	264/624		250 µg/mL
CCOC(=O)c1c(C)[nH]c(O)c1/C=N/Nc1ccc([N+](=O)[O-])cc1[N+](=O)[O-]			>100 µg/mL
CSC1NN=C(c2sc(C)nc2C)N1C1C2CC3CC(C2)CC1C3	ATCC 14053		12.5 µg/mL
COC(=O)C1OC(c2ccccc2O)OC1C(=O)OC	ATCC 10231	broth dilution	312.5 µg/mL
Cc1ccc(-c2nn(-c3ccccc3)cc2/C=N/N=c2\sc3c(=O)[nH]cnc3n2-c2ccc(C)cc2)cc1			100 µg/mL
Oc1ccccc1C1OCC(COCc2ccccc2)O1	ATCC 10231	broth dilution	78.12 µg/mL
CCOC(=O)c1c(C)[nH]c(O)c1C(C)=O			>100 µg/mL
C=C1/C=C(\C)[C@H](CC)OC(=O)[C@H](C)C(=O)C(O)(CO)C/C(C)=C/[C@@H](C)C1	MY1055		>200 µg/mL
C[C@@H]1CCC2(OC1)OC1CC3C4C[C@H](O)[C@H]5C[C@@H](O)CC[C@]5(C)C4CC(=O)[C@]3(C)C1[C@@H]2C	ATCC 90028		10 µg/mL
O=C(N=Nc1c(O)[nH]c2cccc(Cl)c12)Nc1ccc(Br)cc1			1.56 µg/mL
Cc1nc(C)c(-c2n[nH]c(=S)n2-c2ccc3ccccc3c2)s1	ATCC 14053		12.5 µg/mL
COc1ccc(CC(Cc2ccc(-c3ccccc3)cc2)n2ccnc2)cc1			33 µM
CCCCC/C=C/CCC(=O)[C@H]1O[C@H]1C(=O)N1COC1	SC5314		25 µg/mL
COc1cc(C2CC(c3ccc4c(c3)OCO4)=NN2C(C)=O)cc(OC)c1OC	DSM 70014		25 µg/mL
CCCCCCCCCCCOC[N+](C)(C)Cc1cc(N=Nc2ccc(C)cc2)ccc1O			1021 µM
CCOC(=O)C1=C(C)NC(=O)/C1=C\c1c(O)[nH]c(=O)[nH]c1=O			>100 µg/mL
COc1cc(C2CC(c3ccc4c(c3)OCO4)=NN2c2ccc([N+](=O)[O-])cc2)cc(OC)c1OC	DSM 70014		25 µg/mL
c1ccc(CC(Cc2ccc(-c3ccccc3)cc2)n2ccnc2)cc1			1.6 µM
OC(Cn1cncn1)(Cn1cncn1)c1ccc(F)cc1F	3028		50 µg/mL
Cc1ccc(C(C)C)c(O)c1	ATCC 24433	broth dilution	93000 µg/mL
Cc1ccc(-c2nn(-c3ccccc3)cc2/C=N/n2cnc3c(sc(=S)n3-c3ccc(C)cc3)c2=O)cc1			200 µg/mL
O=c1[nH]nc(-c2ccccc2)n1CCCCCCn1c(-c2ccccc2)n[nH]c1=O			1.87 µg/mL
CCCCCOc1ccc(-c2ccc(-c3ccc(CN[C@H]4CCCNC(=O)[C@@H]5C[C@H](N)CN5C(=O)[C@H]([C@@H](C)O)NC(=O)[C@H](CCc5ccc(O)cc5)NC(=O)[C@@H]5C[C@@H](O)CN5C(=O)[C@H]([C@@H](C)O)NC4=O)cc3)cc2)cc1	ATCC 10231		0.39 µg/mL
O=C1C2=C(OC(CI)C2)C(=O)c2ccccc21	Clinical isolate	broth dilution	10.7 µg/mL
Cc1nnsc1-c1n[nH]c(=S)n1C1C2CC3CC(C2)CC1C3	ATCC 14053		25 µg/mL
NC(=O)N=Nc1c(O)[nH]c2cc(Cl)ccc12			>1.56 µg/mL
CCCCCCCCCOC[N+](C)(C)Cc1cc(N=Nc2ccc(C)cc2)ccc1O			541 µM
Cc1ccc(-c2nn(-c3ccccc3)cc2/C=N/N=c2\sc3c(=O)[nH]c(C)nc3n2-c2ccccc2)cc1			100 µg/mL
Cn1cccc1CC(=O)NNC(=O)NCCCCCCNC(=O)NNC(=O)Cc1cccn1C	ATCC 90028		7.5 µg/mL
CC(N1CCN(c2ccc(-n3cnn(Cc4ccc(C(F)(F)F)cc4)c3=O)cc2)CC1)C(O)(Cn1cncn1)c1ccc(F)cc1F	Y0109		<0.048 µg/mL
Cc1ccc(N=Nc2ccc(O)c(C[N+](C)(C)COC3CCCCCC3)c2)cc1			37 µM
C[C@H]1[C@H](O)[C@@H](C)/C=C/C=C/C=C/C=C/C=C/C=C/C=C/[C@H](O[C@@H]2O[C@H](C)[C@@H](O)[C@H](N)[C@@H]2O)C[C@@H]2O[C@](O)(C[C@@H](O)C[C@@H](O)CC[C@H](O)[C@@H](O)C[C@@H](O)CC(=O)O[C@H]1C)C[C@H](O)[C@H]2C(=O)O	TIMM1768		0.39 µg/mL
CC1(C)Cc2ccccc2C(CC#N)=N1.Cl	264/624		250 µg/mL
COc1ccc(C2=CC(c3cc(OC)c(OC)c(OC)c3)NC(SCC(=O)Nc3ccc(Cl)cc3)N2)cc1OC	DSM 70014		25 µg/mL
Cc1ccc(-c2nn(-c3ccccc3)cc2/C=N/N=c2\sc3c(=O)[nH]c(C)nc3n2-c2ccc(C)cc2)cc1			100 µg/mL
CCCCCOc1ccc(-c2ccc(-c3ccc(C(=O)N[C@H]4CCCNC(=O)[C@@H]5[C@H](N)CCN5C(=O)[C@H]([C@@H](C)O)NC(=O)[C@H](CCc5ccc(O)cc5)NC(=O)[C@@H]5C[C@@H](O)CN5C(=O)[C@H]([C@@H](C)O)NC4=O)cc3)cc2)cc1	ATCC 10231		0.2 µg/mL
COc1ccc(C2=NN(c3ccccc3)C(c3cc(OC)c(OC)c(OC)c3)C2)cc1OC	DSM 70014		50 µg/mL
CCCCCOc1ccc(-c2ccc(-c3ccc(C(=O)N[C@H]4CCCNC(=O)[C@@H]5C[C@H](NCc6ccccc6)CN5C(=O)[C@H]([C@@H](C)O)NC(=O)[C@H](CCc5ccc(O)cc5)NC(=O)[C@@H]5C[C@@H](O)CN5C(=O)[C@H]([C@@H](C)O)NC4=O)cc3)cc2)cc1	ATCC 38247		6.25 µg/mL
Fc1ccc(Cc2nc(CN3CCc4sccc4C3)n[nH]2)cc1	NCIM371	agar	15 µg/mL
CCCCCOc1ccc(-c2ccc(-c3ccc(C(=O)N[C@H]4CCCNC(=O)[C@@H]5C[C@H](N)CN5C(=O)[C@H](CCCN=C(N)N)NC(=O)[C@H](CCc5ccc(O)cc5)NC(=O)[C@@H]5C[C@@H](O)CN5C(=O)[C@H]([C@@H](C)O)NC4=O)cc3)cc2)cc1	ATCC 38247		0.78 µg/mL
CC1(c2ccccc2)CC(/C(=N/OCC(O)CN=[N+]=[N-])c2cc3ccccc3o2)C1	ATCC 10231		0.625 µg/mL

A second listing of 9 rows from above:

{"compound": "Nc1ccccc1Cc1nc(CN2CCc3sccc3C2)n[nH]1", "strain or isolate": "NCIM371", "read by": "agar", "result": "50 µg/mL"}
{"compound": "Cc1c(O)cccc1C(=O)N[C@@H](CSc1ccccc1)[C@H](O)CN1C[C@H]2CCCC[C@H]2C[C@H]1C(=O)NC(C)(C)C", "strain or isolate": "I157D", "result": ">64 µg/mL"}
{"compound": "c1ccc(-c2n[nH]c(CN3CCc4sccc4C3)n2)cc1", "strain or isolate": "NCIM371", "read by": "agar", "result": "75 µg/mL"}
{"compound": "O=C(N=Nc1c(O)[nH]c2cccc(Cl)c12)Nc1ccc(Cl)cc1", "result": ">1.56 µg/mL"}
{"compound": "COc1cc(C2CC(c3ccc4c(c3)OCO4)=NN2c2ccc([N+](=O)[O-])cc2)cc(OC)c1OC", "strain or isolate": "DSM 70014", "result": "25 µg/mL"}
{"compound": "Cc1ccc(-c2nn(-c3ccccc3)cc2/C=N/N=c2\\sc3c(=O)[nH]cnc3n2-c2ccc(C)cc2)cc1", "result": "100 µg/mL"}
{"compound": "Cc1ccc(N=Nc2ccc(O)c(C[N+](C)(C)COC3CCCCCC3)c2)cc1", "result": "37 µM"}
{"compound": "COC(=O)C1OC(c2ccccc2O)OC1C(=O)OC", "strain or isolate": "ATCC 10231", "read by": "broth dilution", "result": "312.5 µg/mL"}
{"compound": "Fc1ccc(Cc2nc(CN3CCc4sccc4C3)n[nH]2)cc1", "strain or isolate": "NCIM371", "read by": "agar", "result": "15 µg/mL"}

Neighbouring rows are from separate reports. Blank or dashed fields: not listed here.